Measured values from several laboratories, pooled; numbers as filed in NIAID ChemDB.

Common to all: growth or infection tests; agent: HIV-1; measure: fold resistance

Fold resistance has wild type as its base. An empty or dashed field is not shown. Conditions beyond the fields shown may differ between rows.

| smiles | cell line | strain | method | mutations | value |
|---|---|---|---|---|---|
| CCOCn1c(Cc2ccccc2)c(C(C)C)c(=O)[nH]c1=O | CEM | A-0 (RT-L100I) | cytopathic effect | RT-L100I | 1 |
| Nc1ccn([C@H]2CC[C@@H](CO)O2)c(=O)n1 | HT4 + HT4 LacZ-1 | RTMN (RT-M41L T215Y) | plaque count | RT-M41L T215Y | 2.96 |
| Cc1cn([C@H]2C=C[C@@H](CO)O2)c(=O)[nH]c1=O | HeLa | Recombinant | luciferase | RT-M184V | 1.3 |
| CC(C)CN(C[C@@H](O)[C@H](Cc1ccccc1)NC(=O)O[C@H]1CCO[C@H]2OCC[C@H]21)S(=O)(=O)c1ccc2nc(NC3CC3)sc2c1 | MT-4 | NL4-3 | p24 / luminescence | L10F K20T D30N K45I A71V V77I | 2.7 |
| Cc1cc(S(N)(=O)=O)ccc1NC(=O)COc1ccc(Cl)cc1C(=O)c1cc(Cl)cc(C#N)c1 | MAGI | NNRTI-resistant (RT E138K) | β-galactosidase | RT-E138K | 2.5 |
| CC(C)=CCOc1cc(NC(=S)c2ccoc2C)ccc1Cl | CEM | P-1 (RT-K103N Y144F) | cytopathic effect | RT-K103N Y144F | 20 |
| COc1cc(C(F)(F)F)cc(S(=O)(=O)c2cccc(N)c2C#N)c1 | HeLa + HELA CD4+ | - | β-galactosidase | RT-V108I Y181C | 1000 |
| CCOP(=O)(COc1ccc(C[C@H](NC(=O)O[C@H]2CO[C@H]3OCC[C@H]32)[C@H](O)CN(CC(C)C)S(=O)(=O)c2ccc(OC)cc2)cc1)OCC | MT-2 | IIIB | p24 / ELISA | M200I | 1.1 |
| CC(=O)c1ccc(C)cc1NC(C(N)=O)c1c(Cl)cccc1Cl | MAGI | IIIB | MTT | RT-K103N | 84.4 |
| Cc1ccnc2c1NC(=O)c1cccnc1N2C1CC1 | HT4 + HT4 LacZ-1 | RTMC (RT-Y181C) | plaque count | RT-D67N K70R Y181C T215Y K219Q | 93.3 |
| Fc1cccc(F)c1C1SCc2nc3ccccc3n21 | CEM + CEM-SS | Calanolide A-resistant (RT T139I) | XTT | RT-T139I | 1.56 |
| CN[C@H]1CO[C@@H]2OCC[C@H](OC(=O)N[C@@H](Cc3ccccc3)[C@H](O)CN(CC(C)C)S(=O)(=O)c3ccc4nc(NC5CC5)sc4c3)[C@@H]21 | MT-4 | NL4-3 | p24 / luminescence | L10F M46I I54V V82A | 1.4 |
| Cc1cc(Cl)cc(S(=O)(=O)c2cccc(N)c2C#N)c1 | HeLa + HELA CD4+ | - | β-galactosidase | RT-K103N P225H | 2110 |
| COC(=O)N[C@H](C(=O)N[C@@H](Cc1ccccc1)[C@@H](O)CN(Cc1ccc(-c2ccccn2)cc1)NC(=O)[C@@H](NC(=O)OC)C(C)(C)C)C(C)(C)C | MT-4 | NL4-3 | p24 / luminescence | L10I L33I M36I M46I I54V K55R I62V L63P A71V G73S V82T L90M I93L | >213 |
| CC(C)Nc1cccnc1N1CCN(C(=O)c2cc3cc(NS(C)(=O)=O)ccc3[nH]2)CC1 | CEM | A-0 (RT-L100I) | cytopathic effect | RT-L100I | 40 |
| Cc1cn([C@H]2C[C@H](N=[N+]=[N-])[C@@H](CO)O2)c(=O)[nH]c1=O | HeLa | NRTI resistant | luciferase | RT-D67N T69N M184V T215F K219Q | 4.8 |
| CC(C)=CCN1Cc2cccc3[nH]c(=S)n(c23)C[C@@H]1C | CEM + CEM-SS | Costatolide-resistant (RT L100I T139I) | XTT | RT-L100I T139I | >350 |
| O=c1[nH]cnc2c1ncn2[C@H]1CC[C@@H](CO)O1 | HELA-CD4+ | JF18(RT-D67N T215Y) | plaque count | RT-D67N T215Y | 1.35 |
| CC(C)CN(C[C@@H](O)[C@H](Cc1ccccc1)NC(=O)O[C@H]1CCOC1)S(=O)(=O)c1ccc(N)cc1 | MT-2 | IIIB | p24 / ELISA | I401T R409K D437N | 1.2 |
| Cc1cc(Br)cc(S(=O)(=O)c2cccc(N)c2C#N)c1 | HeLa + HELA CD4+ | - | β-galactosidase | RT-E138K | 1.55 |
| Nc1nc(=O)n([C@@H]2CS[C@H](CO)O2)cc1F | HT4 + HT4 LacZ-1 | RTMN(184) (RT M41L M184V T215Y) | plaque count | RT-M41L M184V 215Y | >5560 |
| CC(C)CN(C[C@@H](O)[C@H](Cc1ccccc1)NC(=O)O[C@H]1CCOC1)S(=O)(=O)c1ccc(N)cc1 | MT-4 | NL4-3 | p24 / luminescence | L10F L33I M36I M46I I54V K55R I62V L63P A71V G73S V82T | >27 |
| Cn1c2ccccc2c2c1cc(C#N)c(=O)n2-c1ccc([N+](=O)[O-])cc1 | HeLa | NRTI resistant | luciferase | RT-M41L E44D D67N T69D V118I M184V L210W T215Y | 11.2 |
| CCN(c1nc(F)ccc1NC(C)(C)C)C1CCN(C(=O)c2cc3cc(NC(=O)N4CCN(C)CC4)ccc3[nH]2)CC1 | MT-2 | IIIB | p24 / ELISA | K112M K113E V128I | 1.5 |
| CCN[C@H]1CO[C@@H]2OCC[C@H](OC(=O)N[C@@H](Cc3ccccc3)[C@H](O)CN(CC(C)C)S(=O)(=O)c3ccc4nc(NC5CC5)sc4c3)[C@@H]21 | MT-4 | NL4-3 | p24 / luminescence | L10I I15V K20R L24I V32I M36I M46I I54V I62V L63P K70Q V82A L88M | 0.5 |
| Cc1cn([C@H]2C[C@H](N=[N+]=[N-])[C@@H](CO)O2)c(=O)[nH]c1=O | CEM + CEM-SS | NL4-3 | XTT | RT-V106I | 3 |
| CC(C)=CCN1c2cc(Cl)cc3[nH]c(=S)n(c23)C[C@@H]1C | MT-4 | - | - | RT-L74V | 0.5 |
| Cc1cc(O)cc(S(=O)(=O)c2cccc(N)c2C#N)c1 | HeLa + HELA CD4+ | - | β-galactosidase | RT-V106A | 0.206 |

Repeating the final 3 entries:

smiles	cell line	strain	method	mutations	value
Cc1cn([C@H]2C[C@H](N=[N+]=[N-])[C@@H](CO)O2)c(=O)[nH]c1=O	CEM + CEM-SS	NL4-3	XTT	RT-V106I	3
CC(C)=CCN1c2cc(Cl)cc3[nH]c(=S)n(c23)C[C@@H]1C	MT-4	-	-	RT-L74V	0.5
Cc1cc(O)cc(S(=O)(=O)c2cccc(N)c2C#N)c1	HeLa + HELA CD4+	-	β-galactosidase	RT-V106A	0.206